Key:
[1] = biological target: EGFRvIII peptide (…-biotin); assay: SPR (BIAcore), biotinylated peptide on streptavidin chip, immunotoxin injected
[2] = biological target: EGFRvIII (mutant epidermal growth factor receptor) on NR6M cells (human) (UniProt P00533); assay: cell-based or functional assay

Substance | Kd [1] | IC50, cytotoxicity (inhibition of [3H]-leucine incorporation) on NR6M cells [2]
MR1 (VH S98P-T99Y) VLCDR3 mutant F92L immunotoxin (scFv-PE38) (from UniProt P11439 278-389; P11439 406-638) | 4 nM | 5.5 ng/mL
MR1 (VH S98P-T99Y) VLCDR3 mutant F92M immunotoxin (scFv-PE38) (from UniProt P11439 278-389; P11439 406-638) | 6 nM | 9 ng/mL
MR1 (VH S98P-T99Y) VLCDR3 mutant F92R immunotoxin (scFv-PE38) (from UniProt P11439 278-389; P11439 406-638) | 9 nM | 6 ng/mL
MR1 (VH S98P-T99Y) VLCDR3 mutant F92S immunotoxin (scFv-PE38) (from UniProt P11439 278-389; P11439 406-638) | 22 nM | 15 ng/mL
MR1 VHCDR3 mutant P98-F99 immunotoxin (scFv-PE38) (from UniProt P11439 278-389; P11439 406-638) | 20 nM | 6 ng/mL
MR1 VHCDR3 mutant P98-I99 immunotoxin (scFv-PE38) (from UniProt P11439 278-389; P11439 406-638) | 5 nM | 4.5 ng/mL
MR1 VHCDR3 mutant P98-N99 immunotoxin (scFv-PE38) (from UniProt P11439 278-389; P11439 406-638) | – | 4.5 ng/mL
MR1 VHCDR3 mutant P98-S99 immunotoxin (scFv-PE38) (from UniProt P11439 278-389; P11439 406-638) | – | 8 ng/mL
MR1 VHCDR3 mutant P98-T99 immunotoxin (scFv-PE38) (from UniProt P11439 278-389; P11439 406-638) | 8 nM | 8 ng/mL
MR1 VHCDR3 mutant P98-V99 immunotoxin (scFv-PE38) (from UniProt P11439 278-389; P11439 406-638) | – | 6.5 ng/mL
MR1 VHCDR3 mutant P98-W99 immunotoxin (scFv-PE38) (from UniProt P11439 278-389; P11439 406-638) | 4 nM | 4.5 ng/mL
MR1 VHCDR3 mutant S98-W99 immunotoxin (scFv-PE38) (from UniProt P11439 278-389; P11439 406-638) | – | 8 ng/mL
MR1 VHCDR3 mutant W98-F99 immunotoxin (scFv-PE38) (from UniProt P11439 278-389; P11439 406-638) | – | 8 ng/mL
